Source: PubChem BioAssay AID2314 (National Center for Advancing Translational Sciences (NCATS), 2010)
“And” between values parts separate entries of the source, which are not always exact repeats. Equal values may be shown once. This is a selection; strong and weak results do not stand in their true shares. The source made the active and inactive calls. Rule as the data show it: active = max response mostly above about 13% (no sharp cut-off); inactive = mostly below about 14%.

Test: Cycloheximide Counterscreen for Small Molecule Inhibitors of Shiga Toxin; also: read at 38.3 µM for the half of the compounds with a filed dose; 0% is about no effect
Details: cell reporter, cycloheximide protein synthesis inhibition counterscreen; stronger effect = higher value

Row | Compound | max response
1 | CN(C(=O)Cc1ccccc1)[C@@H]1CC[C@]2(CCCO2)C[C@H]1N1CCCC1 | inactive: -5.3%
2 | O=[N+]([O-])c1ccc2c(c1)nnn2O | inactive: -1.56%
3 | NC(=O)Nc1ccc([As](=O)(O)O)cc1 | inactive: -3.66%
4 | Nc1ccccc1[As](=O)(O)c1ccccc1 | inactive: 1.28%
5 | O=C(O)COc1ccc([As](=O)(O)O)cc1[N+](=O)[O-] | inactive: 3.36%
6 | O=P(Nc1nccs1)(Oc1ccccc1)Oc1ccccc1 | inactive: 7.01%
7 | O=P(Nc1nccs1)(c1ccccc1)c1nc2ccccc2s1 (stereo not given) | active: 9.95%
8 | CCOP1(=S)c2c(C)nn(CCC#N)c2N=C(c2ccccc2F)N1C (stereo not given) | inactive: -2.97%
9 | O=[N+]([O-])c1cc([N+](=O)[O-])c(-c2ccn[nH]2)s1 | inactive: 12.1%
10 | CC(C)NC(=O)NP(=O)(Oc1ccccc1)Oc1ccccc1 | inactive: 5.81%
11 | CCN(CC)C(=S)SC(NC=O)C(Cl)(Cl)Cl (stereo not given) | inactive: -4.22%
12 | ClCCSc1nnc(-c2cccnc2)o1 | active: 35.7%
13 | CC(C)c1ccc(OP(=O)(Nc2ccccn2)Oc2ccccc2F)cc1 (stereo not given) | inactive: 6.54%
14 | Cc1ccc(OP(=O)(Nc2ccc([N+](=O)[O-])cn2)Oc2ccc(C)cc2)cc1 | inactive: 0.661%
15 | Cc1ccc2nc3c(c(C)c2c1)CC(C(Cl)Cl)S3 (stereo not given) | active: 18.9%
16 | C[As](=O)(O)c1cccc(C(=O)O)c1 | inactive: -0.814%
17 | O=[As](O)(c1ccc(O)cc1)c1ccccc1O | inactive: -1.31%
18 | COc1ccc(N/C(=N/P(=O)(N2CCOCC2)N2CCOCC2)N2CCOCC2)cc1 | inactive: -1.77%
19 | COc1cc(I)ccc1[As](=O)(O)O | inactive: -2.26%
20 | COc1ccc2nc(NP(=O)(c3ccccc3)c3ccccc3)sc2c1 | inactive: -2.42%
21 | Cc1c2c(nc3ccccc13)SC(C(Cl)Cl)C2 (stereo not given) | inactive: 17.6%
22 | Cc1cc(=O)[nH]c(N[N+](=O)[O-])n1 | inactive: -2.06%

Row | Compound | max response
23 | O=C(OC1CN2CCC1CC2)C12CC3CC(CC(C3)C1)C2 (stereo not given) | inactive: -1.69%
24 | CCC(C)N(CC(C)C)C(=S)SC(NC(C)=O)C(Cl)(Cl)Cl (stereo not given) | inactive: 2.23%
25 | CCOP(=O)(Nc1cccc2cccnc12)OCC | inactive: 4.24%
26 | O=C(OC1CN2CCC1CC2)c1cccc([N+](=O)[O-])c1 (stereo not given) | inactive: -0.471%
27 | CCOC(=O)c1ccc(NC(=O)C(C)(CCl)SC)cc1 (stereo not given) | active: 26.3%
28 | O=C(Nc1ccncc1[N+](=O)[O-])c1ccc([N+](=O)[O-])cc1[N+](=O)[O-] | inactive: -1.6%
29 | O=C(COc1ccccc1)OC1CN2CCC1CC2 (stereo not given) | inactive: 7.83%
30 | COP1(=S)c2c(C)nn(CCC#N)c2N=C(c2ccc(F)cc2)N1C (stereo not given) | inactive: -1.81%
31 | O=P(Nc1ccccn1)(c1cccc2ccccc12)c1cccc2ccccc12 | inactive: 2.53%
32 | Cc1cc(SC(NC=O)C(Cl)(Cl)Cl)ncn1 (stereo not given) | inactive: 4.26%
33 | O=[N+]([O-])c1ccc(Nc2ccc(Oc3ccc([N+](=O)[O-])cc3[N+](=O)[O-])cc2)c([N+](=O)[O-])c1 | inactive: -2.09%
34 | CCOC(=O)Nc1cccc([As](=O)(O)O)c1 | inactive: -3.13%
35 | Cc1cc(SC(NC(=O)c2ccccc2)C(Cl)(Cl)Cl)nc(C(C)C)n1 (stereo not given) | inactive: -0.818%
36 | CCCCOc1ccc(C(=O)NCC2(N3CCCCC3)CCCCC2)cc1OC | inactive: -5.37%
37 | CCOC(=O)Nc1ccc([As](=O)(O)O)c(O)c1 | inactive: 0.186%
38 | O=C(O)CNc1ccc([As](=O)(O)O)cc1 | inactive: -6.95%
39 | O=[N+]([O-])c1cccc(NC2=NCC(CBr)S2)c1 (stereo not given) | inactive: 1.04%
40 | CC(C)(C)C(=O)NC(Sc1ccncn1)C(Cl)(Cl)Cl (stereo not given) | inactive: 0.945%
41 | O=C(Nc1cc([As](=O)(O)O)ccc1O)c1ccccc1 | inactive: 0.741%
42 | CC(=O)C1=CCCC2CCC1N2 (stereo not given) | inactive: -1.72%
43 | CC1CCN(C(=O)Oc2c(Cl)cc(Cl)c3cccnc23)CC1 | inactive: 12.9%
44 | CN(C)C(=O)OCCc1n(C)cc[n+]1C | inactive: 0.865%

Row | Compound | max response
45 | CCN(/C(=N/P(=O)(N1CCOCC1)N1CCOCC1)N1CCOCC1)c1ccc(OC)cc1 | inactive: 1.26%
46 | Nc1ccc([As](=O)(O)c2ccc(N)cc2)cc1 | inactive: -0.656%
47 | Cc1ccc(NP(=O)(Oc2ccccc2)Oc2ccccc2)nc1 | inactive: 4.86%
48 | O=[N+]([O-])c1cccc2n[nH]nc12 | inactive: -1.24%
49 | CC(=O)N1C2C3N(C(C)=O)C1C1N(C(C)=O)C(C(N1C(C)=O)N3C(C)=O)N2C(C)=O | inactive: -2.68%
50 | COc1ccc(C2=NCC(CBr)S2)cc1 (stereo not given) | inactive: 26.3%
51 | O=C(NC(Sc1ccncn1)C(Cl)(Cl)Cl)c1ccccc1 (stereo not given) | inactive: -1.7%
52 | Cc1c2non([O-])c-2c(C)[n+](=O)[n+]1[O-] | inactive: 9.49%
53 | Oc1ccccc1CNc1ccccn1 | inactive: 12.2%
54 | CC(C)CC(=O)NC(Sc1ccc(Cl)cc1)C(Cl)(Cl)Cl (stereo not given) | inactive: -2.2%
55 | CN1CCCC(OC(=O)C(c2ccccc2)c2ccccc2)C1 (stereo not given) | inactive: 7.31%
56 | Clc1ccc(Cl)c(NC2=NCC(CBr)S2)c1 (stereo not given) | inactive: 5.35%
57 | Cc1ccc(OP(=O)(Nc2nccs2)Oc2ccc(C)cc2)cc1 | inactive: -2.9%
58 | COc1ccccc1OP(=O)(Nc1ccc(C)cn1)Oc1ccccc1OC | inactive: -2.59%
59 | Cc1ccc(N/C(=N/P(=O)(N2CCOCC2)N2CCOCC2)N2CCOCC2)cc1 | inactive: 9.85%
60 | NC(=O)c1cc([N+](=O)[O-])cc([N+](=O)[O-])c1N | inactive: -2.26%
61 | Nc1cccc2ccc([As](=O)(O)O)cc12 | inactive: -7.51%
62 | Cc1ccc(NP(=O)(Oc2ccccc2F)Oc2ccccc2F)nc1 | inactive: -1.76%
63 | CN(C(=O)Cc1ccc(Cl)c(Cl)c1)[C@H]1CCCC[C@@H]1N1CCCC1 | inactive: -6.12%
64 | Cc1cc(SC(NC(=O)c2ccc(F)cc2)C(Cl)(Cl)Cl)ncn1 (stereo not given) | inactive: -3.14%
65 | CCOP(=O)(Nc1ccccc1)OCC | inactive: -2.98% and inactive: -1.71%
